PubChem BioAssay AID1224833 | University of Georgia – 2016
Assay: 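Host factors restraining rotavirus as candidate antiviral genes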 (primary screen). Cells: monkey MA104 kidney cells. Reagent: siRNA pool against human genes, 50 nM. Time to read-out: 48 h knock-down before infection; read 24 h after infection. Challenge: infection with rotavirus strain RV3 two days after transfection; infectious dose for this stage not given. Detection: 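z-score of rotavirus antigen signal per well, from a fluorescent immunoassay, relative to non-targeting control wells on the same plate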. Reading the numbers: z-score vs non-targeting control: higher = more rotavirus replication than with non-targeting control. Active means: In these data the active calls have z-score vs non-targeting control at about -1 or lower, or at about 1 or higher. Calls: active = z-score beyond 1 either way; inactive = z-score within 1 of zero.
The whole screen tested about 12,000 reagents; shown is an unselected part. Over the whole deposit, about 5,600 (46%) got an active call. 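Active calls cover z-scores past 1 in both directions, so they include lowered as well as raised rotavirus replication.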 Reagents against one gene are numbered here. No sequences are given here.

gene	pool no.	z-score vs non-targeting control	activity call
SLITRK6	1	-1.27	active
IL17RA	1	-1.21	active
ATG13	1	-0.711	inactive
SEC61A1	1	-1.34	active
TMA7	1	-0.335	inactive
BCO2	1	-2.1	active
SFI1	1	0.617	inactive
CHPF	1	0.729	inactive
EXPH5	1	-0.763	inactive
CDC16	1	-2.66	active
EPS8L3	1	1.08	active
SOX14	1	0.333	inactive
ENO1	1	1.17	active
VPS54	1	-0.332	inactive
SOX15	1	1.59	active
GLTP	1	2.88	active
ZFX	1	1.96	active
NFRKB	1	-0.878	inactive
XYLT2	1	0.523	inactive
SMIM29	1	1.06	active
SF3B1	1	-1.76	active
SLC35B2	1	0.46	inactive
PBX4	1	-0.622	inactive
RHOG	1	-0.809	inactive
SMC4	1	-0.792	inactive

Records above whose gene name begins with E or e (3):
gene	pool no.	z-score vs non-targeting control	activity call
EXPH5	1	-0.763	inactive
EPS8L3	1	1.08	active
ENO1	1	1.17	active

The listing continues.
gene	pool no.	z-score vs non-targeting control	activity call
YIPF4	1	-1.08	active
PID1	1	1.71	active
SFRP2	1	-1.31	active
CST3	1	1.3	active
ZCCHC3	1	-0.609	inactive
STAU1	1	-0.86	inactive
OSBPL7	1	-0.117	inactive
SLC1A1	1	-0.5	inactive
MAEL	1	1.35	active
TAS2R46	1	-1.47	active
TBC1D24	1	0.68	inactive
BRINP1	1	2.24	active
BTBD8	1	-0.566	inactive
BTBD8	2	0.162	inactive
TIE1	1	0.328	inactive
CCZ1	1	0.265	inactive
KANSL1	1	1.46	active
STAG1	1	-1.28	active
UGT2B11	1	-0.966	inactive
OR4F29	1	-1.25	active
